In this data set the test system is HepG2-NTCP cells. Briefly: TMT-based phosphoproteome profiling of HBV-infected vs mock HepG2-NTCP (HBV/mock ratio). Further details: species or system human. The conditions noted are these: phosphosite abundance ratio of host protein, HBV-infected vs mock HepG2-NTCP, 7dpi, sheet Up-regulated.

B1: Q9H1E3 1xPhospho [S113(100)] (protein, UniProt Q9H1E3 1-243, looked up)
Nuclear ubiquitous casein and …: MSRPVRNRKVVDYSQFQESDDADEDYGRDSGPPTKKIRSSPREAKNKRRSGKNSQEDSEDSEDKDVKTKKDDSHSAEDSEDEKEDHKNVRQQRQAASKAASKQREMLMEDVGSEEEQEEEDEAPFQEKDSGSDEDFLMEDDDDSDYGSSKKKNKKMVKKSKPERKEKKMPKPRLKATVTPSPVKGKGKVGRPTASKASKEKTPSPKEEDEEPESPPEKKTSTSPPPEKSGDEGSEDEAPSGED
modifications: phosphorylated S113
As for B1, the HBV/mock was 1.388.

B2: Q9NZT2 1xPhospho [S315(100)] (protein, UniProt Q9NZT2 1-677, looked up)
Opioid growth factor receptor: MDDPDCDSTWEEDEEDAEDAEDEDCEDGEAAGARDADAGDEDEESEEPRAARPSSFQSRMTGSRNWRATRDMCRYRHNYPDLVERDCNGDTPNLSFYRNEIRFLPNGCFIEDILQNWTDNYDLLEDNHSYIQWLFPLREPGVNWHAKPLTLREVEVFKSSQEIQERLVRAYELMLGFYGIRLEDRGTGTVGRAQNYQKRFQNLNWRSHNNLRITRILKSLGELGLEHFQAPLVRFFLEETLVRRELPGVRQSALDYFMFAVRCRHQRRQLVHFAWEHFRPRCKFVWGPQDKLRRFKPSSLPHPLEGSRKVEEEGSPGDPDHEASTQGRTCGPEHSKGGGRVDEGPQPRSVEPQDAGPLERSQGDEAGGHGEDRPEPLSPKESKKRKLELSRREQPPTEPGPQSASEVEKIALNLEGCALSQGSLRTGTQEVGGQDPGEAVQPCRQPLGARVADKVRKRRKVDEGAGDSAAVASGGAQTLALAGSPAPSGHPKAGHSENGVEEDTEGRTGPKEGTPGSPSETPGPSPAGPAGDEPAESPSETPGPRPAGPAGDEPAESPSETPGPRPAGPAGDEPAESPSETPGPSPAGPTRDEPAESPSETPGPRPAGPAGDEPAESPSETPGPRPAGPAGDEPAESPSETPGPSPAGPTRDEPAKAGEAAELQDAEVESSAKSGKP
modifications: phosphorylated S315
For the molecule B2, the HBV/mock was 1.351.

B3: Q9NRY4 1xPhospho [S1179(100)] (protein, UniProt Q9NRY4 1-1499, looked up)
Rho GTPase-activating protein …: MMMARKQDVRIPTYNISVVGLSGTEKEKGQCGIGKSCLCNRFVRPSADEFHLDHTSVLSTSDFGGRVVNNDHFLYWGEVSRSLEDCVECKMHIVEQTEFIDDQTFQPHRSTALQPYIKRAAATKLASAEKLMYFCTDQLGLEQDFEQKQMPDGKLLVDGFLLGIDVSRGMNRNFDDQLKFVSNLYNQLAKTKKPIVVVLTKCDEGVERYIRDAHTFALSKKNLQVVETSARSNVNVDLAFSTLVQLIDKSRGKTKIIPYFEALKQQSQQIATAKDKYEWLVSRIVKNHNENWLSVSRKMQASPEYQDYVYLEGTQKAKKLFLQHIHRLKHEHIERRRKLYLAALPLAFEALIPNLDEIDHLSCIKAKKLLETKPEFLKWFVVLEETPWDATSHIDNMENERIPFDLMDTVPAEQLYEAHLEKLRNERKRVEMRRAFKENLETSPFITPGKPWEEARSFIMNEDFYQWLEESVYMDIYGKHQKQIIDKAKEEFQELLLEYSELFYELELDAKPSKEKMGVIQDVLGEEQRFKALQKLQAERDALILKHIHFVYHPTKETCPSCPACVDAKIEHLISSRFIRPSDRNQKNSLSDPNIDRINLVILGKDGLARELANEIRALCTNDDKYVIDGKMYELSLRPIEGNVRLPVNSFQTPTFQPHGCLCLYNSKESLSYVVESIEKSRESTLGRRDNHLVHLPLTLILVNKRGDTSGETLHSLIQQGQQIASKLQCVFLDPASAGIGYGRNINEKQISQVLKGLLDSKRNLNLVSSTASIKDLADVDLRIVMCLMCGDPFSADDILFPVLQSQTCKSSHCGSNNSVLLELPIGLHKKRIELSVLSYHSSFSIRKSRLVHGYIVFYSAKRKASLAMLRAFLCEVQDIIPIQLVALTDGAVDVLDNDLSREQLTEGEEIAQEIDGRFTSIPCSQPQHKLEIFHPFFKDVVEKKNIIEATHMYDNAAEACSTTEEVFNSPRAGSPLCNSNLQDSEEDIEPSYSLFREDTSLPSLSKDHSKLSMELEGNDGLSFIMSNFESKLNNKVPPPVKPKPPVHFEITKGDLSYLDQGHRDGQRKSVSSSPWLPQDGFDPSDYAEPMDAVVKPRNEEENIYSVPHDSTQGKIITIRNINKAQSNGSGNGSDSEMDTSSLERGRKVSIVSKPVLYRTRCTRLGRFASYRTSFSVGSDDELGPIRKKEEDQASQGYKGDNAVIPYETDEDPRRRNILRSLRRNTKKPKPKPRPSITKATWESNYFGVPLTTVVTPEKPIPIFIERCIEYIEATGLSTEGIYRVSGNKSEMESLQRQFDQDHNLDLAEKDFTVNTVAGAMKSFFSELPDPLVPYNMQIDLVEAHKINDREQKLHALKEVLKKFPKENHEVFKYVISHLNKVSHNNKVNLMTSENLSICFWPTLMRPDFSTMDALTATRTYQTIIELFIQQCPFFFYNRPITEPPGARPSSPSAVASTVPFLTSTPVTSQPSPPQSPPPTPQSPMQPLLPSQLQAEHTL
modifications: phosphorylated S1179
B3: the HBV/mock amounted to 1.368.

B4: Q6P988 1xPhospho [S81(100)] (protein, UniProt Q6P988 20-496, looked up)
Palmitoleoyl-protein …: SEGRKTWRRRGQQPPPPPRTEAAPAAGQPVESFPLDFTAVEGNMDSFMAQVKSLAQSLYPCSAQQLNEDLRLHLLLNTSVTCNDGSPAGYYLKESRGSRRWLLFLEGGWYCFNRENCDSRYDTMRRLMSSRDWPRTRTGTGILSSQPEENPYWWNANMVFIPYCSSDVWSGASSKSEKNEYAFMGALIIQEVVRELLGRGLSGAKVLLLAGSSAGGTGVLLNVDRVAEQLEKLGYPAIQVRGLADSGWFLDNKQYRHTDCVDTITCAPTEAIRRGIRYWNGVVPERCRRQFQEGEEWNCFFGYKVYPTLRCPVFVVQWLFDEAQLTVDNVHLTGQPVQEGLRLYIQNLGRELRHTLKDVPASFAPACLSHEIIIRSHWTDVQVKGTSLPRALHCWDRSLHDSHKASKTPLKGCPVHLVDSCPWPHCNPSCPTVRDQFTGQEMNVAQFLMHMGFDMQTVAQPQGLEPSELLGMLSNGS
modifications: phospho S81
For B4, the HBV/mock is listed as 1.679.

B5: Q9Y2X3 2xPhospho [S502(100); S514(100)] (protein, UniProt Q9Y2X3 1-529, looked up)
Nucleolar protein 58: MLVLFETSVGYAIFKVLNEKKLQEVDSLWKEFETPEKANKIVKLKHFEKFQDTAEALAAFTALMEGKINKQLKKVLKKIVKEAHEPLAVADAKLGGVIKEKLNLSCIHSPVVNELMRGIRSQMDGLIPGVEPREMAAMCLGLAHSLSRYRLKFSADKVDTMIVQAISLLDDLDKELNNYIMRCREWYGWHFPELGKIISDNLTYCKCLQKVGDRKNYASAKLSELLPEEVEAEVKAAAEISMGTEVSEEDICNILHLCTQVIEISEYRTQLYEYLQNRMMAIAPNVTVMVGELVGARLIAHAGSLLNLAKHAASTVQILGAEKALFRALKSRRDTPKYGLIYHASLVGQTSPKHKGKISRMLAAKTVLAIRYDAFGEDSSSAMGVENRAKLEARLRTLEDRGIRKISGTGKALAKTEKYEHKSEVKTYDPSGDSTLPTCSKKRKIEQVDKEDEITEKKAKKAKIKVKVEEEEEEKVAEEEETSVKKKKKRGKKKHIKEEPLSEEEPCTSTAIASPEKKKKKKKKRENED
modifications: phospho S502, S514
As for B5, the HBV/mock was 1.467.

B6: Q8NEJ9 1xPhospho [S] (protein, UniProt Q8NEJ9 2-315, looked up)
Neuroguidin: AALGVLESDLPSAVTLLKNLQEQVMAVTAQVKSLTQKVQAGAYPTEKGLSFLEVKDQLLLMYLMDLTHLILDKASGGSLQGHDAVLRLVEIRTVLEKLRPLDQKLKYQIDKLIKTAVTGSLSENDPLRFKPHPSNMMSKLSSEDEEEDEAEDDQSEASGKKSVKGVSKKYVPPRLVPVHYDETEAEREKKRLERAKRRALSSSVIRELKEQYSDAPEEIRDARHPHVTRQSQEDQHRINYEESMMVRLSVSKREKGRRKRANVMSSQLHSLTHFSDISALTGGTVHLDEDQNPIKKRKKIPQKGRKKKGFRRRR
modifications: phospho
For B6, the HBV/mock amounted to 1.3615.

For the origin of these results see paper PMC9104152, “Phosphoproteomics Unravel HBV Triggered Rewiring of Host Phosphosignaling Events” (International Journal of Molecular Sciences, 2022).
